Test results from patent publication US6767887B1 (Roche Diagnostics GmbH, priority 1999, dated 2004).

Assay: general procedure: Fmoc solid-phase peptide synthesis; PAL-Ala-aminomethyl-polystyrene(1%)divinylbenzene (0.5 mmol/g) or TentaGel Rink-amide (0.18 mmol/g); DIC/HOBt or TBTU/HOBt with DIEA
Conditions: whole synthesis, scale of the general procedure 0.02 mmol or 0.0076 mmol

| Substance | final purity (method not given) |
| --- | --- |
| HGEGTFTSDLSKQMEEEAVRLFIEWLKAGR-NH2 | ≧97% |
| HGEGTFTSDLSKQMEEEAVRLFIEWLKNGR-NH2 | ≧96% |
